Laboratory results as given in the CheMixHub viscosity set.
± gives the uncertainty stated by the source.

Assay: xn = mol fraction of the nth substance listed
Details: 101 kPa, x1 = 0.8082

`CCCCOCCCC` + CCCCCCCCC gave a viscosity (298.15 K) of 0.6432 ± 0.0082 mPa·s, a viscosity (308.15 K) of 0.5847 ± 0.0075 mPa·s and a viscosity (318.15 K) of 0.5159 ± 0.0066 mPa·s.
